In article PMC7390954 (Frontiers in Microbiology, 2020):
“And” between values parts separate entries of the source, which are not always exact repeats. Equal entries are not always repeated. Where two headings read alike, the source gives them in different places.

Columns and labels:
[1] = tested on: P. aeruginosa UCBPP-PA14 transposon (Tn) insertion mutant library; conditions: sub-MIC, BM2 20 μM Mg2+
[2] = tested on: P. aeruginosa UCBPP-PA14 Tn insertion mutants; conditions: sltB1 (PA14_12080) Tn mutant; BM2 20 μM Mg2+
[3] = Tn insertions in PA14_18330 (arnT)
[4] = Tn insertions in PA14_18340 (arnD)
[5] = Tn insertions in PA14_18360 (arnC)
[6] = Tn insertions in PA14_42920 (tssK-2, hsiJ2)
[7] = Tn insertions in PA14_48970 (bacteriophage Pf1 helix destabilizing protein)
[8] = Tn insertions in PA14_49180 (phoP)
[9] = Tn insertions in PA14_58090 (asmA)
[10] = Tn insertions in PA14_63150 (pmrA)
[11] = Tn insertions in PA14_63160 (pmrB)

Q: Which “log2-fold change of normalized UID, treated vs untreated” value (shortened to “log2-fold change of normalized UID”) ([1]; Tn insertions in PA14_00720) does the source give for `CC(C)CCCCC(=O)N[C@@H](CCN)C(=O)N[C@H](C(=O)N[C@@H](CCN)C(=O)N[C@H]1CCNC(=O)[C@H]([C@@H](C)O)NC(=O)[C@H](CCN)NC(=O)[C@H](CCN)NC(=O)[C@H](CC(C)C)NC(=O)[C@@H](Cc2ccccc2)NC(=O)[C@H](CCN)NC1=O)[C@@H](C)O` [PMB, polymyxin B2] here?
A: The value was -1.141.

Q: What about the “log2-fold change of normalized UID” value ([1]; Tn insertions in PA14_03410 (tRNA-Arg)) of the same molecule?
A: The value was -2.878.

Q: What about the “log2-fold change of normalized UID” value ([1]; Tn insertions in PA14_05520 (mexR)) of the same molecule?
A: Its value is -2.2.

Q: And the “log2-fold change of normalized UID” value ([1]; Tn insertions in PA14_08460)?
A: The value was -1.454.

Q: And the “log2-fold change of normalized UID” value ([1]; Tn insertions in PA14_08540 (mepM1))?
A: The value was -2.878.

Q: And the “log2-fold change of normalized UID” value ([1]; Tn insertions in PA14_09220 (pchB))?
A: The value was -1.556.

Q: And the “log2-fold change of normalized UID” value ([1]; Tn insertions in PA14_09300)?
A: Its value is -1.205.

Q: What about the “log2-fold change of normalized UID” value ([1]; Tn insertions in PA14_09350) of the same molecule?
A: The value was -1.219.

Q: What about the “log2-fold change of normalized UID” value ([1]; Tn insertions in PA14_12080 (sltB1)) of the same molecule?
A: Its value is -3.686.

Q: And the “log2-fold change of normalized UID” value ([1]; Tn insertions in PA14_13880)?
A: Its value is -1.293.

Q: And the “log2-fold change of normalized UID” value ([1]; Tn insertions in PA14_16280)?
A: The value was -1.771.

Q: And the “log2-fold change of normalized UID” value ([1]; Tn insertions in PA14_17940 (glpR))?
A: The value was -1.662.

Q: What about the “log2-fold change of normalized UID” value [1, 3] of the same molecule?
A: The value was −5.04 and -5.048.

Q: And the “log2-fold change of normalized UID” value [1, 4]?
A: The value was −3.93 and -3.9371.

Q: And the “log2-fold change of normalized UID” value [1, 5]?
A: Its value is −4.99 and -4.994.

Q: What about the “log2-fold change of normalized UID” value ([1]; Tn insertions in PA14_20940) of the same molecule?
A: The value was -1.293.

Q: What about the “log2-fold change of normalized UID” value ([1]; Tn insertions in PA14_22840) of the same molecule?
A: Its value is -1.149.

Q: And the “log2-fold change of normalized UID” value ([1]; Tn insertions in PA14_23370 (orfK))?
A: The value was -2.206.

Q: And the “log2-fold change of normalized UID” value ([1]; Tn insertions in PA14_23890)?
A: The value was -1.478.

Q: What about the “log2-fold change of normalized UID” value ([1]; Tn insertions in PA14_24420) of the same molecule?
A: The value was -1.331.

Q: What about the “log2-fold change of normalized UID” value ([1]; Tn insertions in PA14_27190 (tRNA-Ser)) of the same molecule?
A: The value was −1.87 and -1.878.

Q: What about the “log2-fold change of normalized UID” value ([1]; Tn insertions in PA14_31430) of the same molecule?
A: The value was -1.247.

Q: And the “log2-fold change of normalized UID” value ([1]; Tn insertions in PA14_33780)?
A: Its value is -1.068.

Q: What about the “log2-fold change of normalized UID” value ([1]; Tn insertions in PA14_34940) of the same molecule?
A: The value was -1.186.

Q: What about the “log2-fold change of normalized UID” value ([1]; Tn insertions in PA14_40560) of the same molecule?
A: The value was -3.293.

Q: What about the “log2-fold change of normalized UID” value ([1]; Tn insertions in PA14_41090 (mltD)) of the same molecule?
A: Its value is -3.151.

Q: And the “log2-fold change of normalized UID” value ([1]; Tn insertions in PA14_41260 (parR))?
A: Its value is -3.359.

Q: What about the “log2-fold change of normalized UID” value [1, 6] of the same molecule?
A: Its value is −3.34 and -3.35.

Q: And the “log2-fold change of normalized UID” value ([1]; Tn insertions in PA14_48510)?
A: The value was -1.994.

Q: What about the “log2-fold change of normalized UID” value ([1]; Tn insertions in PA14_48520) of the same molecule?
A: The value was -1.08.

Q: What about the “log2-fold change of normalized UID” value ([1]; Tn insertions in PA14_48910) of the same molecule?
A: Its value is -4.381.

Q: And the “log2-fold change of normalized UID” value [1, 7]?
A: The value was −4.04 and -4.048.

Q: And the “log2-fold change of normalized UID” value ([1]; Tn insertions in PA14_48990)?
A: The value was -1.078.

Q: What about the “log2-fold change of normalized UID” value ([1]; Tn insertions in PA14_49000) of the same molecule?
A: The value was −1.48 and -1.484.

Q: What about the “log2-fold change of normalized UID” value ([1]; Tn insertions in PA14_49010) of the same molecule?
A: Its value is -1.399.

Q: What about the “log2-fold change of normalized UID” value ([1]; Tn insertions in PA14_49020) of the same molecule?
A: The value was -1.85.

Q: What about the “log2-fold change of normalized UID” value [1, 8] of the same molecule?
A: The value was −2.80 and -2.803.

Q: And the “log2-fold change of normalized UID” value ([1]; Tn insertions in PA14_51310)?
A: The value was -1.052.

Q: What about the “log2-fold change of normalized UID” value ([1]; Tn insertions in PA14_54750) of the same molecule?
A: The value was -1.371.

Q: And the “log2-fold change of normalized UID” value ([1]; Tn insertions in PA14_56950 (colR))?
A: Its value is -1.0 and -1.071.

Q: What about the “log2-fold change of normalized UID” value ([1]; Tn insertions in PA14_57100 (ampG)) of the same molecule?
A: The value was -2.087.

Q: What about the “log2-fold change of normalized UID” value ([1]; Tn insertions in PA14_57510) of the same molecule?
A: Its value is -1.177.

Q: And the “log2-fold change of normalized UID” value [1, 9]?
A: The value was −4.56 and -4.564.

Q: What about the “log2-fold change of normalized UID” value ([1]; Tn insertions in PA14_59120) of the same molecule?
A: The value was -1.181.

Q: What about the “log2-fold change of normalized UID” value ([1]; Tn insertions in PA14_60400 (rpsT)) of the same molecule?
A: Its value is -2.463.

Q: And the “log2-fold change of normalized UID” value ([1]; Tn insertions in PA14_62040)?
A: Its value is -1.263.

Q: And the “log2-fold change of normalized UID” value ([1]; Tn insertions in PA14_63040)?
A: The value was -1.753.

Q: And the “log2-fold change of normalized UID” value [1, 10]?
A: The value was −5.87 and -5.878.

Q: What about the “log2-fold change of normalized UID” value [1, 11] of the same molecule?
A: The value was −6.21 and -6.212.

Q: What about the “log2-fold change of normalized UID” value ([1]; Tn insertions in PA14_64260) of the same molecule?
A: The value was -1.556.

Q: What about the “log2-fold change of normalized UID” value ([1]; Tn insertions in PA14_65300 (hflX)) of the same molecule?
A: The value was -1.377.

Q: And the “log2-fold change of normalized UID” value ([1]; Tn insertions in PA14_69250)?
A: The value was -2.956.

Q: And the “log2-fold change of normalized UID” value ([1]; Tn insertions in PA14_69470 (algR))?
A: The value was -2.293.

Q: And the “increased susceptibility of mutant relative to wild-type” value [2]?
A: The value was 4 fold.

Q: Which “log2-fold change of normalized UID” value [1, 3] does the source give for colistin here?
A: Its value is −5.03.

Q: And the “log2-fold change of normalized UID” value [1, 4]?
A: Its value is −4.92.

Q: What about the “log2-fold change of normalized UID” value [1, 5] of the same molecule?
A: The value was −4.97.

Q: And the “log2-fold change of normalized UID” value ([1]; Tn insertions in PA14_18370 (arnB))?
A: The value was −5.10.

Q: What about the “log2-fold change of normalized UID” value [1, 6] of the same molecule?
A: The value was −3.47.

Q: What about the “log2-fold change of normalized UID” value [1, 7] of the same molecule?
A: The value was −3.03.

Q: And the “log2-fold change of normalized UID” value ([1]; Tn insertions in PA14_49000)?
A: The value was −1.80.

Q: What about the “log2-fold change of normalized UID” value [1, 8] of the same molecule?
A: Its value is −1.26.

Q: And the “log2-fold change of normalized UID” value [1, 9]?
A: Its value is −1.58.

Q: What about the “log2-fold change of normalized UID” value [1, 10] of the same molecule?
A: The value was −4.86.

Q: What about the “log2-fold change of normalized UID” value [1, 11] of the same molecule?
A: Its value is −7.19.

Q: And the “increased susceptibility of mutant relative to wild-type” value [2]?
A: The value was 2 fold.
